The chains behind the UniProt entries cited, without tags or fusion partners.
UniProt P9WPC9, whole entry: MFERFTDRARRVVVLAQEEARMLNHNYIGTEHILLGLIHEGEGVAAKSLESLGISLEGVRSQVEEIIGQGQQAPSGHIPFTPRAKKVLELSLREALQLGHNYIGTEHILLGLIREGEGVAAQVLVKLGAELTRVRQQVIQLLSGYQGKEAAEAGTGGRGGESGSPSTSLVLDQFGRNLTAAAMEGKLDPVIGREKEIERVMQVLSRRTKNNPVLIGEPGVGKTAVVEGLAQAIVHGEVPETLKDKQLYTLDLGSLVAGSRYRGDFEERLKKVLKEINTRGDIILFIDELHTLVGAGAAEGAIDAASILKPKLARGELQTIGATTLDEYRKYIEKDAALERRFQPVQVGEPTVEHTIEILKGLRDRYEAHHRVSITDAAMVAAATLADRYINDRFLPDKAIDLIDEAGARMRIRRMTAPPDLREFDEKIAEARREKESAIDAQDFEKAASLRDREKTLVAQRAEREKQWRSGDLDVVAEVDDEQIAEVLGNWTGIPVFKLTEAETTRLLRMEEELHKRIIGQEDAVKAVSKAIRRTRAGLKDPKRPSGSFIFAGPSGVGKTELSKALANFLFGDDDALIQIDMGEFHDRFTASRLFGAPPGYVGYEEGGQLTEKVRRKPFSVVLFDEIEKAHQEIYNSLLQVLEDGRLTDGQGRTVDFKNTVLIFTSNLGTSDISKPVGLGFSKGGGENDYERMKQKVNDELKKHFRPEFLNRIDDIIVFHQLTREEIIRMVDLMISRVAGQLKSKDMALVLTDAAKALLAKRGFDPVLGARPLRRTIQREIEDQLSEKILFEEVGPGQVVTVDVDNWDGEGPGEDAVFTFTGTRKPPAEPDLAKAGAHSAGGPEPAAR

According to patent US9925251B2, “Treatments for Mycobacterium tuberculosis” (priority 2011, dated 2018):

Target: ClpC1 ATPase (Mycobacterium tuberculosis, UniProt P9WPC9)
Assay type: biochemical

With casein the “stimulation of ClpC1 ATPase activity” value was 2 fold.
